Compound potency records, mixed from different reports. Data source: NIAID ChemDB in PubChem.

Common to all: target-level tests

ICn is the concentration giving n% inhibition. Lines come from different laboratories, so protocols vary. Percent inhibition refers to the dose given; in toxicity tests it is the harm to the cells.

{"SMILES": "CC(N)C12CC3CC(CC(C3)C1)C2", "species": "Influenza A virus", "strain or isolate": "A/PR/1/74 rimantadine-susceptible", "protein": "Virion transcriptase", "read by": "nucleotide incorporation", "read-out": "inhibition", "tested at": "100 µg/mL", "value": "51%"}
{"SMILES": "CC(=O)Nc1ccc(C(=O)O)cc1N", "species": "Influenza B virus", "strain or isolate": "Memphis/3/89", "protein": "Neuraminidase", "read-out": "IC50", "value": ">20000 µM"}
{"SMILES": "CCC(CC)Nc1cc(C(=O)O)ccc1N1C(=O)CCC1(CO)CO", "species": "Influenza A virus", "strain or isolate": "Subtype N1", "protein": "Neuraminidase", "read-out": "IC50", "value": "79 µM"}
{"SMILES": "CCC(CC)[C@H](NC(C)=O)[C@@H]1[C@H](O)[C@@H](C(=O)O)C[C@H]1N=C(N)N", "species": "Influenza A virus", "strain or isolate": "WILD TYPE (274)", "protein": "Influenza virus neuraminidase", "read-out": "IC50", "value": "0.0005 µM"}
{"SMILES": "CC(=O)N[C@H]1[C@H]([C@H](O)[C@H](O)CO)OC(C(=O)O)=C[C@@H]1N", "species": "Influenza A virus", "protein": "Neuraminidase", "read-out": "Ki", "value": "0.05 µM"}
{"SMILES": "CC(=O)N[C@H]1[C@H]([C@H](F)[C@H](O)CO)OC(C(=O)O)=C[C@@H]1N=C(N)N", "species": "Influenza A virus", "strain or isolate": "A/PR/8/34", "protein": "Sialidase", "read-out": "IC50", "value": "0.0008 µg/mL"}
{"SMILES": "O=P(O)(O)C(O)P(=O)(O)O", "species": "Influenza virus", "protein": "RNA-dependent RNA polymerase", "read-out": "IC50", "value": ">500 µM"}
{"SMILES": "CCCCCCCC(=O)N[C@@H]([C@@H]1OC(C(=O)O)=C[C@H](N=C(N)N)[C@H]1NC(C)=O)[C@H](O)CO", "species": "Influenza A virus", "strain or isolate": "A/PR/8/34", "protein": "Sialidase", "read-out": "IC50", "value": "0.047 µg/mL"}
{"SMILES": "CCC(CC)Nc1cc(C(=O)O)ccc1N1C(=O)CCC1(CN)CO", "species": "Influenza A virus", "strain or isolate": "Subtype N2", "protein": "Neuraminidase", "read-out": "IC50", "value": "0.52 µM"}
{"SMILES": "O=C(P(=O)(O)O)P(=O)(O)O", "species": "Influenza virus", "protein": "RNA-dependent RNA polymerase", "read-out": "IC50", "value": "280 µM"}
{"SMILES": "O=C(NC(=S)Nc1nc(Cl)cc(Cl)n1)c1ccc(-c2ccccc2Cl)o1", "species": "Influenza A virus", "strain or isolate": "H1N1", "protein": "Neuraminidase", "read-out": "IC50", "value": "1.6 µM"}
{"SMILES": "CCCCCCCCCCCCCCCC(=O)N[C@@H]([C@@H]1OC(C(=O)O)=C[C@H](N=C(N)N)[C@H]1NC(C)=O)[C@H](O)CO", "species": "Influenza A virus", "strain or isolate": "A/PR/8/34", "protein": "Sialidase", "read-out": "IC50", "value": "0.479 µg/mL"}
{"SMILES": "O=P(O)(O)CP(=O)(O)O", "species": "Influenza virus", "protein": "RNA-dependent RNA polymerase", "read-out": "IC50", "value": ">500 µM"}
{"SMILES": "COCON1C(=O)[C@H]([C@H](OS(C)(=O)=O)c2ccc(OC)cc2)N(Cc2ccc(OC)cc2)[C@@H](Cc2ccccc2)C1=O", "species": "Influenza A virus", "protein": "Transcriptase", "read-out": "IC50", "value": ">200 µM"}
{"SMILES": "CC(C)(C)NC(=O)NC(=S)NC(=O)c1ccc(-c2ccccc2Cl)o1", "species": "Influenza A virus", "strain or isolate": "H1N1", "protein": "Neuraminidase", "read-out": "IC50", "value": "0.43 µM"}
{"SMILES": "CC(=O)N[C@H]1[C@H]([C@H](O)[C@H](O)CO)OC(C(=O)O)=C[C@@H]1N", "species": "Influenza A virus", "strain or isolate": "H3N2 A/AICHI/2/68", "protein": "Sialidase", "read-out": "IC50", "value": "0.24 µM"}
{"SMILES": "CCO[C@@H]([C@@H]1OC(C(=O)O)=C[C@H](N=C(N)N)[C@H]1NC(C)=O)[C@H](O)CO", "species": "Influenza A virus", "strain or isolate": "A/PR/8/34", "protein": "Sialidase", "read-out": "IC50", "value": "0.0146 µg/mL"}
{"SMILES": "CC(=O)N[C@H]1C(OC2CCCCC2)C=C(C(=O)O)C[C@@H]1N", "species": "Influenza A virus", "protein": "Neuraminidase", "read-out": "IC50", "value": "0.21 µM"}
{"SMILES": "CC(C)(C)NC(=O)NC(=S)NC(=O)C1C(/C=C(/Cl)C(F)(F)F)C1(C)C", "species": "Influenza A virus", "strain or isolate": "H1N1", "protein": "Neuraminidase", "read-out": "IC50", "value": "12.2 µM"}
{"SMILES": "CCC(=O)c1c(O)n(O)c2cc(NC(=O)Nc3cccc(C(=O)O)c3)ccc12", "species": "Influenza A virus", "strain or isolate": "PR/8/34", "protein": "Endonuclease", "read by": "nucleotide incorporation", "read-out": "IC50", "value": "14 µM"}
{"SMILES": "CCCCCCOC1C=C(C(=O)O)C[C@H](N)[C@H]1NC(C)=O", "species": "Influenza A virus", "protein": "Neuraminidase", "read-out": "IC50", "value": "0.29 µM"}
{"SMILES": "CC(=O)Nc1c(N=C(N)N)cc(C(=O)O)cc1[C@H](O)[C@H](O)CO", "species": "Influenza A virus", "strain or isolate": "Influenza A/Shandong/09/93 (H3N2)", "protein": "Neuraminidase", "read-out": "Ki", "value": "8 µM"}
{"SMILES": "Cc1cc(=O)[nH]c(NC(=S)NC(=O)c2ccc(-c3ccc([N+](=O)[O-])cc3)o2)n1", "species": "Influenza A virus", "strain or isolate": "H1N1", "protein": "Neuraminidase", "read-out": "IC50", "value": "0.85 µM"}
{"SMILES": "COCON1C(=O)/C(=C/c2ccc(F)cc2)N(Cc2ccc(OC)cc2)[C@@H](Cc2ccccc2)C1=O", "species": "Influenza A virus", "protein": "Transcriptase", "read-out": "IC50", "value": ">200 µM"}
{"SMILES": "CCC(CC)O[C@@H]1C(SC)=C(C(=O)O)C[C@H](N)[C@H]1NC(C)=O", "species": "Influenza A virus", "strain or isolate": "A/PR/8/34", "protein": "Influenza virus neuraminidase", "read-out": "IC50", "value": "3.1 µM"}
{"SMILES": "CC[C@H](CCc1ccccc1)OC1C=C(C(=O)O)C[C@H](N)[C@H]1NC(C)=O", "species": "Influenza A virus", "protein": "Neuraminidase", "read-out": "IC50", "value": "0.00009 µM"}
{"SMILES": "COCON1C(=O)[C@H]([C@@H](O)C(C)C)N(Cc2ccc(OC)cc2)[C@@H](Cc2ccccc2)C1=O", "species": "Influenza A virus", "protein": "Transcriptase", "read-out": "IC50", "value": ">200 µM"}
{"SMILES": "CCC(CC)Nc1cc(C(=O)O)ccc1NC(C)=O", "species": "Influenza B virus", "strain or isolate": "B/LEE/40", "protein": "Neuraminidase", "read-out": "IC50", "value": "2300 µM"}
{"SMILES": "CC(O)(C(=O)O)P(=O)(O)O", "species": "Influenza virus", "protein": "RNA-dependent RNA polymerase", "read-out": "IC50", "value": ">500 µM"}
{"SMILES": "COCON1C(=O)[C@H]([C@H](O)c2ccccc2)N(Cc2ccc(OC)cc2)[C@@H](CC(C)C)C1=O", "species": "Influenza A virus", "protein": "Transcriptase", "read-out": "IC50", "value": ">200 µM"}
{"SMILES": "N[C@H]1C=C(C(=O)O)O[C@@H]([C@H](O)[C@H](O)CO)C1", "species": "Influenza A virus", "strain or isolate": "AICHI", "protein": "Influenza A sialidase", "read-out": "IC50", "value": ">500 µM"}
{"SMILES": "O=C(O)P(=O)(O)O", "species": "Influenza virus", "protein": "RNA-dependent RNA polymerase", "read-out": "IC50", "value": "30 µM"}